A mixed list of measured activities; the numbers were collected in NIAID ChemDB.

Common to all: tests in culture; organism: Herpes simplex virus 2; endpoint: EC50

Blank or dashed fields: not listed here. ECn is the concentration giving n% inhibition of infection, replication or growth. Lines come from different laboratories, so protocols vary.

structure	cell line	strain	read by	value
Nc1nc(=O)n([C@@H]2O[C@H](COP(=O)([O-])[O-])[C@@H](O)[C@H]2O)cc1F	VERO	MS	cytopathic effect	<0.5 µM
O=c1[nH]c(=O)n(COCCO)cc1Cl	PRK	-	cytopathic effect	>400 µg/mL
Cc1cn(CC[C@H](O)CCO)c(=O)[nH]c1=O	E6SM	LYONS	cytopathic effect	>400 µg/mL
O=C(NCc1ccc(Cl)cc1)c1cn2c3c(cc(CN4CCOCC4)cc3c1=O)OC(c1cccnc1)C2	HFF	11361 (ACV-resistant)	plaque count	>17.5 µM
Nc1nc2c(ncn2CCCC(CO)CO)c(=O)[nH]1	BHK	91075	plaque count	3 µM
O=c1[nH]c(=O)n([C@@H]2O[C@H](CO)[C@@H](O)[C@@H]2O)cc1/C=C/Br	HELF	42-78	plaque count	290 µM
Nc1ncnc2c1ncn2CC[C@H](O)CCO	E6SM	LYONS	cytopathic effect	>400 µg/mL
O=c1[nH]c(=O)n([C@@H]2O[C@H](CO)[C@@H](O)[C@@H]2O)cc1/C=C/Br	PRK	LYONS	cytopathic effect	20 µg/mL
O=c1c2ncn(COCCO)c2nc2[nH]c(-c3ccccc3)c(Cc3ccccc3)n12	HEL	196	cytopathic effect	>16 µg/mL
Nc1nc2c(ncn2COCCO)c(=O)[nH]1	VERO	B4327	plaque count	0.5 µM
CC(=O)c1ccc(NC(=O)CN2C(=O)c3ccccc3S2(=O)=O)cc1	HEL	G	cytopathic effect	>100 µM
CC[C@H](C)[C@H](N)[C@H](O)n1nc(C)c2c(Cl)c3cc(OC)ccc3nc21	FS-85	-	plaque count	5 µg/mL
O=c1c2ncn(COCCO)c2nc2[nH]c(-c3ccccc3)c(Cc3ccc(F)cc3)n12	HEL	196	cytopathic effect	>16 µg/mL
CC(=O)OCCOCn1cnc2c(Cl)nc(N)nc21	PRK	-	cytopathic effect	20 µg/mL
Nc1nc2c(ncn2COC(CO)CO)c(=O)[nH]1	HEL	G	cytopathic effect	0.03 µM
C[C@@H](c1ccccc1)N(CC(=O)Nc1ccc(-c2csc(N)n2)cc1)C(=O)c1ccncc1	BHK-21/C13	333	plaque count	0.1 µM
Nc1ccn(C[C@@H](CO)OCP(=O)(O)O)c(=O)n1	HFF	SR	plaque count	2.1 µg/mL
Nc1nc2c(ncn2COCCO)c(=O)[nH]1	HFF	R-326 (acyclovir-susceptible)	cytopathic effect	1 µg/mL
Nc1nc2c(ncn2C[C@]2(CO)C[C@H]2CO)c(=O)[nH]1	MRC-5	186 (TK-)	plaque count	78 µg/mL
Nc1ncnc2c1ncn2C[C@@H](CO)OCP(=O)(O)O	ESM	196	cytopathic effect	0.07 µg/mL
CC(C)NS(=O)(=O)c1ccccc1C(=O)N/N=C/c1ccc(Br)cc1	HEL	G	cytopathic effect	>100 µM
Nc1nc2c(ncn2CC[C@@H](O)CO)c(=O)[nH]1	SIRC	91075	plaque count	0.9 µM
CC(C)CS[C@H]1C[C@@H](n2cnc3c(N)ncnc32)[C@H](O)[C@@H]1O	E6SM	G	cytopathic effect	400 µg/mL
Nc1nc(Cl)c2ncn([C@@H](CCO)SCCO)c2n1	HFF	-	cytopathic effect	>200 µM
O=c1[nH]c(=O)n([C@H]2O[C@@H](CO)[C@@H](O)[C@@H]2O)cc1C(F)(F)F	HELF	42-78	plaque count	72 µM
Nc1nc2c(ncn2CCC(O)CO)c(=O)[nH]1	VERO	B4327	plaque count	18 µM
Nc1[nH]c(=O)ncc1F	VERO	MS	cytopathic effect	>5000 µM
COCc1cn([C@H]2C[C@H](O)[C@@H](CO)O2)c(=O)nc1N	VERO	333	plaque count	175 µM
O=c1[nH]c(=O)n([C@H]2C[C@H](O)[C@@H](CO)O2)cc1/C=C/Br	PRK	G	cytopathic effect	2 µg/mL
Cc1cn(C(CCO)SCCO)c(=O)[nH]c1=O	HFF	-	cytopathic effect	>200 µM
O=c1ccn([C@@H]2O[C@H](CO)[C@@H](O)[C@H]2O)c(=O)[nH]1	HELF	42-78	plaque count	440 µM
C/C(=N/Nc1nc(-c2ccc(Cl)cc2)cs1)c1ccc(NC(=O)CN2C(=O)c3ccccc3S2(=O)=O)cc1	HEL	G	cytopathic effect	>20 µM
O=C(NCc1ccc(Cl)cc1)c1c[nH]c2c(F)cccc2c1=O	-	MS	plaque count	26 µM
O=Cc1cn([C@@H]2O[C@H](CO)[C@@H](O)[C@@H]2O)c(=O)[nH]c1=O	HELF	42-78	plaque count	>500 µM
CO[C@H](CO)[C@@H](O)CCn1cc(C)c(=O)[nH]c1=O	E6SM	G	cytopathic effect	>400 µg/mL
Nc1nc2c(ncn2CC[C@@H](O)CO)c(=O)[nH]1	BHK	91075	plaque count	11 µM
Cc1cn([C@@H]2O[C@H](CO)[C@@H](O)[C@@H]2F)c(=O)[nH]c1=O	HELF	42-78	plaque count	0.48 µM
O=c1[nH]c(=O)n(COCCO)cc1/C=C/Br	PRK	-	cytopathic effect	>400 µg/mL
Nc1nc2c(ncn2[C@@H](CCO)OCCO)c(=O)[nH]1	HFF	-	cytopathic effect	>200 µM
O=c1c2ncn(COCCO)c2nc2[nH]c(-c3ccc(F)cc3)cn12	HEL	LYONS	cytopathic effect	>16 µg/mL
Nc1nc(=O)n([C@@H]2O[C@H](CO)[C@@H](O)[C@@H]2F)cc1I	HELF	42-78	plaque count	0.37 µM
CSc1nnc(-c2ccccc2S(=O)(=O)NC(C)C)o1	HEL	G	cytopathic effect	>100 µM
COc1nc(=O)n([C@H]2C[C@H](O)[C@@H](CO)O2)cc1/C=C/Cl	PRK	LYONS	cytopathic effect	70 µg/mL
COc1ccc(-c2[nH]c3nc4c(ncn4COCCO)c(=O)n3c2C)cc1	HEL	196	cytopathic effect	1.92 µg/mL
CO[C@H](CO)[C@@H](O)CCn1ccc(N)nc1=O	E6SM	G	cytopathic effect	>400 µg/mL
Cn1cc(C(=O)NCc2ccc(Cl)cc2)c(=O)c2cc(CN3CCOCC3)ccc21	HFF	G (WILD TYPE)	plaque count	7.5 µM
CCc1cn([C@H]2C[C@H](O)[C@@H](CO)O2)c(N)nc1=O	PRK	G	cytopathic effect	>400 µg/mL
Nc1nc(=O)n([C@H]2C[C@H](O)[C@@H](CO)O2)cc1/C=C/Cl	PRK	G	cytopathic effect	20 µg/mL